A mixed list of measured activities; the numbers were collected in NIAID ChemDB.

Shared fields: tests in culture; agent: HIV-1; measure: inhibition

Inhibition is in % at the dose shown (toxicity tests: loss of growth or viability).

| SMILES | strain | changes | cell line | method | setting | tested at | result |
|---|---|---|---|---|---|---|---|
| C=C(C)[C@@H]1CC[C@]2(C(=O)O)CC[C@]3(C)C(CCC4[C@@]5(C)CC[C@H](OC(=O)CN(OC)C6C[C@H](O)[C@H](O)[C@@H](C)O6)C(C)(C)C5CC[C@]43C)C12 | IIIB |  |  | cytopathic effect |  | 10 µM | 12% |
| CC(C)[C@H](NC(=O)[C@H](CO)NC(=O)[C@H](CS)NC(=O)CCC(=O)NCCCOCCOCCCN)C(=O)N[C@H](C(=O)N[C@@H](CS)C(=O)NCC(=O)O)[C@@H](C)O | IIIB |  | PBMC(PHA STIM.) + PBMC | p24 |  | 0.66 µM | 100% |
| Cc1ccc(C)c(NS(=O)(=O)c2cc(C(=O)NCc3ccccn3)ccc2Cl)c1 | Clinical isolate | AZT multi-resistant | C8166 | p24 |  | 0.8 µM | 90% |
| COc1ccc(F)c2c(C(=O)C(=O)N3CCN(C(=O)c4ccccn4)C[C@H]3C)c[nH]c12 |  |  | HeLa + HELA CD4+/CCR5 | luciferase |  | 10 µM | >98% |
| CC1=C(C(=O)OCc2ccccc2)C(c2ccco2)NC(=O)N1 |  |  | HEK293T | p24 / ELISA |  | 100 µM | 22.5% |
| COC(=O)C(=O)c1csc(NC(=O)NCCc2ccccc2)n1 |  |  | MT-4 | cytopathic effect / XTT |  | 10 µg/mL | 0% |
| CC(C)[C@H](NC(=O)[C@H](CO)NC(=O)[C@@H](N)CSSCC(=O)O)C(=O)N[C@H](C(=O)N[C@@H](CSSCC(=O)O)C(=O)NCC(=O)O)[C@@H](C)O | p13 |  | PBMC(PHA STIM.) + PBMC | p24 |  | 0.3 µM | 73% |
| C[C@H]1[C@H](O)[C@@H](C)/C=C/C=C/C=C/C=C/C=C/C=C/C=C/[C@H](O[C@@H]2O[C@H](C)[C@@H](O)[C@H](N)[C@@H]2O)C[C@@H]2O[C@](O)(C[C@@H](O)C[C@@H](O)CC[C@H](O)[C@@H](O)C[C@@H](O)CC(=O)O[C@H]1C)C[C@H](O)[C@H]2C(=O)O | CMU08 CLADE E X4 (SI) |  | PBMC | p24 / RT activity |  | 2.3 µM | 90% |
| CN1C(=O)N(C)C(=O)C2(C1=O)[C@@H](c1ccco1)CC(=O)C[C@H]2[C@H]1COC(C)(C)O1 | NL4-3 |  | SupT1 | MTT |  | 0.1 µM | >50% |
| CCCCCCCCCCCCCCCCOP(=O)(OC[C@H]1OC(O)[C@@H](O)[C@@H](O)[C@@H]1O)OC[C@H]1O[C@@H](n2cc(C)c(=O)[nH]c2=O)C[C@@H]1N=[N+]=[N-] | LAV-Bru |  | PBL | RT activity | 7 d | 25 µM | 93% |
| O=C(CCCCCCCCCCC(=O)Nc1cc(S(=O)(=O)O)cc2cc(S(=O)(=O)O)cc(O)c12)Nc1cc(S(=O)(=O)O)cc2cc(S(=O)(=O)O)cc(O)c12 |  |  | MOLT-3 | syncytia |  | 2 µg/mL | 49% |
| C=C(C)[C@@H]1CC[C@]2(C(=O)O)CC[C@]3(C)C(CCC4[C@@]5(C)CC[C@H](OC(=O)CN(OC)C6O[C@H](CO)[C@@H](O)[C@H](O)[C@H]6F)C(C)(C)C5CC[C@]43C)C12 | IIIB |  |  | cytopathic effect |  | 10 µM | 17% |
| Nc1nc2c(ncn2[C@H]2CC[C@@H](CO)O2)c(=O)[nH]1 | LAI |  | ATH-8 + ATH8 | cytopathic effect / XTT |  | 20 µM | 100% |
| N=C1Sc2ccccc2C2=NCCCN12 | 92UG001 |  | PBMC | β-galactosidase |  | 1.89 µM | 90% |
| CC1(C)[C@@H](O[C@H]2O[C@H](C(=O)O)[C@@H](O)[C@H](O)[C@H]2O[C@@H]2O[C@H](C(=O)O)[C@@H](O)[C@H](O)[C@H]2O)CC[C@]2(C)[C@H]3C(=O)C=C4[C@@H]5C[C@@](C)(C(=O)O)CC[C@]5(C)CC[C@@]4(C)[C@]3(C)CC[C@@H]12 | IIIB |  | MT-4 | cytopathic effect |  | 150 µM | 83% |
| O=C(C(=O)N1CCN(C(=O)c2ccc(F)cc2F)CC1)c1c[nH]c2ccccc12 | BRU |  | MT-2 | RT activity |  | 10 µM | 28.5% |
| C=C(C)[C@@H]1CC[C@]2(C(=O)O)CC[C@]3(C)C(CCC4[C@@]5(C)CC[C@H](OC(=O)CN(OC)C6O[C@H](C)[C@H](O)[C@H](O)[C@H]6O)C(C)(C)C5CC[C@]43C)C12 | IIIB |  |  | cytopathic effect |  | 10 µM | 28% |
| CCCCCCCCCCCCCCCCOP(=O)(OCCO[C@@H]1O[C@H](CO)[C@@H](O)[C@H](O)[C@@H]1O)OC[C@H]1O[C@@H](n2cc(C)c(=O)[nH]c2=O)C[C@@H]1N=[N+]=[N-] | LAV-Bru |  | CEM | RT activity | 26 d | 1 µM | 0% |
| O=C1[C@@H](Cc2ccccc2)NC(=S)N1Cc1ccccc1 |  |  | MT-4 | cytopathic effect / XTT |  | 1 µg/mL | 0–4% |
| CC1=C(C(=O)OCc2ccccc2)C(c2ccccc2)NC(=O)N1 |  |  | HEK293T | p24 / ELISA |  | 100 µM | 23.7% |
| Nc1ccc(S(=O)(=O)O)c2cccc(O)c12 |  |  | MOLT-3 | syncytia |  | 10 µg/mL | 25% |
| O=C(C(=O)N1CCN(C(=O)c2ncc[nH]2)CC1)c1c[nH]c2cccc(F)c12 |  |  | HeLa + HELA CD4+/CCR5 | luciferase |  | 10 µM | 71% |
| Nc1nc2c(ncn2[C@@H]2O[C@H](CO)C[C@@H]2F)c(=O)[nH]1 | LAI |  | ATH-8 + ATH8 | cytopathic effect / XTT |  | 2 µM | 25% |
| O=C1NC(=S)N[C@@H]1Cc1ccccc1 |  |  | MT-4 | cytopathic effect / XTT |  | 1 µg/mL | 5% |
| O=C(C(=O)N1CCN(C(=O)c2ccccc2)CC1)c1c[nH]c2c(F)c(F)c(F)c(F)c12 |  |  | HeLa + HELA CD4+/CCR5 | luciferase |  | 10 µM | >98% |
| CC1=C(C(=O)O)C(c2ccc(Cl)cc2)NC(=O)N1 |  |  | HEK293T | p24 / ELISA |  | 100 µM | 49.5% |
| C=C(C)[C@@H]1CC[C@]2(C(=O)O)CC[C@]3(C)C(CCC4[C@@]5(C)CC[C@H](OC(=O)CN(OC)C6OC[C@H](O)[C@H](O)[C@H]6O)C(C)(C)C5CC[C@]43C)C12 | IIIB |  |  | cytopathic effect |  | 10 µM | 4% |
| C[C@@H]1CN(C(=O)c2ccccc2)CCN1C(=O)C(=O)c1c[nH]c2c([N+](=O)[O-])cccc12 |  |  | HeLa + HELA CD4+/CCR5 | luciferase |  | 10 µM | >98% |
| O=C1[C@@H](c2ccc(-c3ccccc3)cc2)NC(=S)N1c1ccccc1 |  |  | MT-4 | cytopathic effect / XTT |  | 10 µg/mL | 0% |
| COC(=O)c1cccc2c(C(=O)C(=O)N3CCN(C(=O)c4ccccc4)C[C@H]3C)c[nH]c12 |  |  | HeLa + HELA CD4+/CCR5 | luciferase |  | 10 µM | >98% |
| C=C(C)[C@@H]1CC[C@]2(C(=O)O)CC[C@]3(C)C(CCC4[C@@]5(C)CC[C@H](OC(=O)CN(OC)[C@H]6O[C@H](CO)[C@@H](O)[C@H](O)[C@@H]6NC(C)=O)C(C)(C)C5CC[C@]43C)C12 | IIIB |  |  | cytopathic effect |  | 10 µM | 4% |
| CCN(CC)C(=S)S | LAV |  | PBL | p24 |  | 0.00000075 µg/mL | 33% |
| Nc1ccn([C@H]2C=C[C@@H](CO)O2)c(=O)n1 | LAV |  | MT-2 | cytopathic effect / trypan blue |  | 0.5 µM | 10% |
| O=C(C(=O)N1CCN(C(=O)c2ccccc2)CC1)c1c[nH]c2c(F)ccc(F)c12 |  |  | HeLa + HELA CD4+/CCR5 | luciferase |  | 10 µM | >98% |
| O=C(NCCc1ccccc1)Nc1ccn[nH]1 |  |  | MT-4 | cytopathic effect / XTT |  | 10 µg/mL | 0% |
| CC(C)[C@H](NC(=O)[C@H](Cc1ccccc1)C[C@H](O)[C@H](Cc1ccccc1)NC(=O)OC(C)(C)C)C(=O)N[C@@H](Cc1ccccc1)C(=O)N1CCOCC1 | AMS316-23 |  | PBL | RT activity |  | 0.1 µM | 89% |
| CC1=C(C(=O)O)C(c2ccc(N)cc2)NC(=O)N1 |  |  | HEK293T | p24 / ELISA |  | 100 µM | 16.9% |
| O=C(NCCc1ccccc1)Nc1nc2ccc(Cl)cc2s1 |  |  | MT-4 | cytopathic effect / XTT |  | 1 µg/mL | 0% |
| CC1CN(C(=O)C(=O)c2c[nH]c3cccc(F)c23)CCN1C(=O)c1ccccc1 |  |  | HeLa + HELA CD4+/CCR5 | luciferase |  | 10 µM | >98% |
| C=C(C)[C@@H]1CC[C@]2(C(=O)O)CC[C@]3(C)C(CCC4[C@@]5(C)CC[C@H](OC(=O)CN(OC)C6O[C@@H](CO)[C@@H](O)[C@@H](O)[C@@H]6O)C(C)(C)C5CC[C@]43C)C12 | IIIB |  |  | cytopathic effect |  | 10 µM | 6% |
| O=Cc1ccc(F)c2c(C(=O)C(=O)N3CCN(C(=O)c4ccccc4)CC3)c[nH]c12 |  |  | HeLa + HELA CD4+/CCR5 | luciferase |  | 10 µM | >98% |
| CC1=C(C(=O)O)C(/C=C/c2ccccc2)NC(=O)N1 |  |  | HEK293T | p24 / ELISA |  | 100 µM | 4.5% |
| C[C@H]1[C@H](O)[C@@H](C)/C=C/C=C/C=C/C=C/C=C/C=C/C=C/[C@H](O[C@@H]2O[C@H](C)[C@@H](O)[C@H](N)[C@@H]2O)C[C@@H]2O[C@](O)(C[C@@H](O)C[C@@H](O)CC[C@H](O)[C@@H](O)C[C@@H](O)CC(=O)O[C@H]1C)C[C@H](O)[C@H]2C(=O)O | IIIB |  | H9 | p24 / antigen |  | 0.1 µg/mL | 29% |
| O=C(NCCc1ccccc1)Nc1ccccn1 |  |  | MT-4 | cytopathic effect / XTT |  | 1 µg/mL | 0% |
| Cc1cn([C@H]2C[C@H](N=[N+]=[N-])[C@@H](COP(=O)(O)OCCO[C@H]3O[C@H](CO)[C@@H](O)[C@H](O)[C@@H]3O)O2)c(=O)[nH]c1=O | LAV-Bru |  | CEM | RT activity | 26 d | 0.2 µM | 0% |
| Cc1ccc(-c2ccc3c(c2)C=C(C(=O)Nc2ccc(C[N+](C)(C)C4CCOCC4)cc2)CCC3)cc1 | TB9 CLADE C |  | PBMC | p24 |  | 1 µM | 91.4% |
| C=C(C)[C@@H]1CC[C@]2(C(=O)NCCCCCCCC(=O)N[C@@H](CC(C)C)[C@@H](O)CC(=O)O)CC[C@]3(C)[C@H](CC[C@@H]4[C@@]5(C)CC[C@H](O)C(C)(C)[C@@H]5CC[C@]43C)[C@@H]12 | LN7 (H91L) |  | HeLa P4 + HeLa | syncytia |  | 10 µM | >99% |
| NCCSSCCN | IIIB |  | PBL | p24 |  | 10 µM | 35% |
| S=C(NCCc1ccccc1)N1CCOCC1 |  |  | MT-4 | cytopathic effect / XTT |  | 1 µg/mL | 13% |
| C=C(C)[C@@H]1CC[C@]2(C(=O)O)CC[C@]3(C)C(CCC4[C@@]5(C)CC[C@H](OC(=O)CN(OC)C6O[C@H](CO)[C@H](O)[C@H](O)[C@@H]6O)C(C)(C)C5CC[C@]43C)C12 | IIIB |  |  | cytopathic effect |  | 10 µM | 5% |

The last 3 rows once more:

SMILES	strain	changes	cell line	method	setting	tested at	result
NCCSSCCN	IIIB		PBL	p24		10 µM	35%
S=C(NCCc1ccccc1)N1CCOCC1			MT-4	cytopathic effect / XTT		1 µg/mL	13%
C=C(C)[C@@H]1CC[C@]2(C(=O)O)CC[C@]3(C)C(CCC4[C@@]5(C)CC[C@H](OC(=O)CN(OC)C6O[C@H](CO)[C@H](O)[C@H](O)[C@@H]6O)C(C)(C)C5CC[C@]43C)C12	IIIB			cytopathic effect		10 µM	5%

Two numbers with a dash give a range or band. Neighbouring rows are from separate reports. Blank or dashed fields: not listed here.